{
  "source": "patent US8212038B2",
  "about": "“Methods and compositions for controlling ectoparasites” (HatchTech Pty Ltd., priority 2003, dated 2012)",
  "test_system": "lice eggs",
  "assay": "Time course in vitro lice egg hatching assay",
  "assay_type": "in vivo, Pediculus humanus humanus",
  "conditions": "5%; results not shown",
  "data": [
    {"smiles": "OCCN(CCO)CCO", "values": [
      {"measurement": "effect on egg hatching (in words)", "value": "did not appear to have an effect on egg hatching"}
    ]}
  ]
}
